For one data set, the system named is HIV-2. Briefly: Anti-HIV-2 activity in MT-4 cells (MTT method). In kind it is cell-based. The note with it: selectivity index, ratio of CC50/EC50. Here is the method: (§1) The evaluation of the antiviral activity of the compounds against HIV in MT-4 cells was performed using the MTT assay as described below. Stock solutions (10 × final concentration) of test compounds were added in 25 μL volumes to two series of triplicate wells to allow simultaneous evaluation of their effects on mock- and HIV-infected cells at the beginning of each experiment. Serial 5-fold dilutions of test compounds were made directly in flat-bottomed 96-well microtiter trays using a Biomek 3000 robot (Beckman Instruments, Fullerton, CA). Untreated HIV- and mock-infected cell samples were included as controls. HIV stock ([…]) at 100–300 CCID50 (50% cell culture infectious doses) or culture medium was added to either the infected or mock-infected wells of the microtiter tray. Mock-infected cells were used to evaluate the effects of the test compound on uninfected cells to assess the test compounds’ cytotoxicity. Exponentially growing MT-4 cells were centrifuged for 5 min at 220 g, and the supernatant was discarded. The MT-4 cells were resuspended at 6 × 10^5 cells/mL, and 50 μL volumes were transferred to the microtiter tray wells. Five days after infection, the viability of mock- and HIV-infected cells was examined spectrophotometrically using the MTT assay. The MTT assay is based on the reduction of yellow-colored 3-(4,5-dimethylthiazol-2-yl)-2,5-diphenyltetrazolium bromide (MTT) (Acros Organics) by mitochondrial dehydrogenase activity in metabolically active cells to a blue-purple formazan that can be measured spectrophotometrically. The absorbances were read in an eight-channel computer-controlled photometer (Infinite M1000, Tecan) at two wavelengths (540 and 690 nm). All data were calculated using the median absorbance value of three wells.
A general note: Tetrazolium assays rely on reduction of a dye to a coloured formazan, in cell work by metabolically active cells.

The next data set concerns HIV-1. Briefly: Anti-HIV-1 activity in MT-4 cells (MTT method). In kind it is cell-based. The note with it: selectivity index, ratio of CC50/EC50. The method, then:
as §1

In the case of `COc1ccc(N(C)C(=O)[C@H](Cc2cc(F)cc(F)c2)NC(=O)CN(Cc2ccc(C#N)cc2)C(=O)Cc2cccc3ccccc23)cc1` [I-14, (S)-2-(2-(N-(4-cyanobenzyl)-2-(naphthalen-1-yl)acetamido)acetamido)-3-(3,5-difluorophenyl)-N-(4-methoxyphenyl)-N-methylpropanamide], the “SI HIV-2” value with HIV-2 was over 82. As to `COc1ccc(N(C)C(=O)[C@H](Cc2cc(F)cc(F)c2)NC(=O)CN(CC2CCCCC2)C(=O)Cn2nc(C(F)(F)F)cc2C)cc1` [I-20, (S)-2-(2-(N-(cyclohexylmethyl)-2-(5-methyl-3-(trifluoromethyl)-1H-pyrazol-1-yl)acetamido)acetamido)-3-(3,5-difluorophenyl)-N-(4-methoxyphenyl)-N-methylpropanamide], the “SI HIV-1” value with HIV-1 amounted to 2. Moreover, the “SI HIV-2” value in the data set on HIV-2 is reported as 2.

Regarding `COc1ccc(N(C)C(=O)[C@H](Cc2cc(F)cc(F)c2)NC(=O)CN(Cc2ccc(C#N)cc2)C(=O)Cc2ccc3ccccc3c2)cc1` [I-13, (S)-2-(2-(N-(4-cyanobenzyl)-2-(naphthalen-2-yl)acetamido)acetamido)-3-(3,5-difluorophenyl)-N-(4-methoxyphenyl)-N-methylpropanamide], the “SI HIV-2” value with HIV-2 is given as over 1.

`COc1ccc(N(C)C(=O)[C@H](Cc2cc(F)cc(F)c2)NC(=O)CN(CC2CCCCC2)C(=O)Cc2c[nH]c3ccc(Br)cc23)cc1` [I-10, (S)-2-(2-(2-(5-bromo-1H-indol-3-yl)-N-(cyclohexylmethyl)acetamido)acetamido)-3-(3,5-difluorophenyl)-N-(4-methoxyphenyl)-N-methylpropanamide]: the “SI HIV-1” value in the data set with HIV-1 is on record as under 1. Also, in the data set with HIV-2, the “SI HIV-2” value is given as under 1.

Take “(S)-2-(2-(N-(4-cyanobenzyl)-2-(5-fluoro-2-methyl-1H-indol-3-yl)acetamido)acetamido)-3-(3,5-difluorophenyl)-N-(4-methoxyphenyl)-N-methylpropanamide [I-15]”: the “SI HIV-1” value with HIV-1 came out at 9. Further, in the data set on HIV-2, the “SI HIV-2” value is recorded as 26. For `COc1ccc(N(C)C(=O)[C@H](Cc2cc(F)cc(F)c2)NC(=O)CN(Cc2ccc(F)cc2)C(=O)Cc2cccc3ccccc23)cc1` [I-8, (S)-3-(3,5-difluorophenyl)-2-(2-(N-(4-fluorobenzyl)-2-(naphthalen-1-yl)acetamido)acetamido)-N-(4-methoxyphenyl)-N-methylpropanamide], the “SI HIV-2” value with HIV-2 is recorded as over 33. As for `COc1ccc(N(C)C(=O)[C@H](Cc2cc(F)cc(F)c2)NC(=O)CN(Cc2ccc(C#N)cc2)C(=O)Cc2ccc(B3OC(C)(C)C(C)(C)O3)cc2)cc1` [I-17, (S)-2-(2-(N-(4-cyanobenzyl)-2-(4-(4,4,5,5-tetramethyl-1,3,2-dioxaborolan-2-yl)phenyl)acetamido)acetamido)-3-(3,5-difluorophenyl)-N-(4-methoxyphenyl)-N-methylpropanamide], in the data set on HIV-1, the “SI HIV-1” value was 3. Further, the “SI HIV-2” value in the data set with HIV-2 was determined as 3.

For the molecule `COc1ccc(N(C)C(=O)[C@H](Cc2cc(F)cc(F)c2)NC(=O)CN(Cc2ccc(F)cc2)C(=O)Cc2ccc(B(O)O)cc2)cc1` [I-23, (S)-(4-(2-((2-((3-(3,5-difluorophenyl)-1-((4-methoxyphenyl)(methyl)amino)-1-oxopropan-2-yl)amino)-2-oxoethyl)(4-fluorobenzyl)amino)-2-oxoethyl)phenyl) boronic acid], in the data set with HIV-1, the “SI HIV-1” value stood at 4. The “SI HIV-2” value in the data set on HIV-2 was determined as 3.

As for “(S)-2-(2-(2-(5-bromo-2-methyl-1H-indol-3-yl)-N-(4-cyanobenzyl)acetamido)acetamido)-3-(3,5-difluorophenyl)-N-(4-methoxyphenyl)-N-methylpropanamide [I-16]”, in the data set on HIV-1, the “SI HIV-1” value was determined as 16. Further, the “SI HIV-2” value in the data set on HIV-2 is 6. In the same order, the values of `COc1ccc(N(C)C(=O)[C@H](Cc2cc(F)cc(F)c2)NC(=O)CN(Cc2ccccc2)C(=O)Cc2ccc3ccccc3c2)cc1` [I-22, (S)-2-(2-(N-benzyl-2-(naphthalen-2-yl)acetamido)acetamido)-3-(3,5-difluorophenyl)-N-(4-methoxyphenyl)-N-methylpropanamide] are under 1 and under 1. For `COc1ccc(N(C)C(=O)[C@H](Cc2cc(F)cc(F)c2)NC(=O)CN(Cc2ccc(F)cc2)C(=O)Cc2c[nH]c3ccc(Br)cc23)cc1` [I-9, (S)-2-(2-(2-(5-bromo-1H-indol-3-yl)-N-(4-fluorobenzyl)acetamido)acetamido)-3-(3,5-difluorophenyl)-N-(4-methoxyphenyl)-N-methylpropanamide], the “SI HIV-1” value in the data set on HIV-1 worked out at 6. For the same molecule, in the data set with HIV-2, the “SI HIV-2” value is under 1. In the same order, the values of `COc1ccc(N(C)C(=O)[C@H](Cc2cc(F)cc(F)c2)NC(=O)CN(C(=O)Cc2ccc(B3OC(C)(C)C(C)(C)O3)cc2)C2CC2)cc1` [I-18, (S)-2-(2-(N-cyclopropyl-2-(4-(4,4,5,5-tetramethyl-1,3,2-dioxaborolan-2-yl)phenyl)acetamido)acetamido)-3-(3,5-difluorophenyl)-N-(4-methoxyphenyl)-N-methylpropanamide] are 17 and 9. For the molecule `COc1ccc(N(C)C(=O)[C@H](Cc2cc(F)cc(F)c2)NC(=O)CN(Cc2ccc(F)cc2)C(=O)Cc2c(C)[nH]c3ccccc23)cc1` [I-7, (S)-3-(3,5-difluorophenyl)-2-(2-(N-(4-fluorobenzyl)-2-(2-methyl-1H-indol-3-yl)acetamido)acetamido)-N-(4-methoxyphenyl)-N-methylpropanamide], the “SI HIV-1” value with HIV-1 stood at 8. Regarding `COc1ccc(N(C)C(=O)[C@H](Cc2cc(F)cc(F)c2)NC(=O)CN(Cc2ccc(F)cc2)C(=O)Cc2ccc(B3OC(C)(C)C(C)(C)O3)cc2)cc1` [I-12, (S)-3-(3,5-difluorophenyl)-2-(2-(N-(4-fluorobenzyl)-2-(4-(4,4,5,5-tetramethyl-1,3,2-dioxaborolan-2-yl)phenyl)acetamido)acetamido)-N-(4-methoxyphenyl)-N-methylpropanamide], the “SI HIV-1” value with HIV-1 worked out at 6. The “SI HIV-2” value in the data set on HIV-2 is 5. The matching figures for `COc1ccc(N(C)C(=O)[C@H](Cc2cc(F)cc(F)c2)NC(=O)CN(Cc2ccccc2)C(=O)Cc2c(C)[nH]c3ccccc23)cc1` [I-21, (S)-2-(2-(N-benzyl-2-(2-methyl-1H-indol-3-yl)acetamido)acetamido)-3-(3,5-difluorophenyl)-N-(4-methoxyphenyl)-N-methylpropanamide]: 10 and 4. `COc1ccc(N(C)C(=O)[C@H](Cc2cc(F)cc(F)c2)NC(=O)CN(Cc2ccc(F)cc2)C(=O)Cn2nc(C(F)(F)F)c3c2CCCC3)cc1` [I-19, (S)-3-(3,5-difluorophenyl)-2-(2-(N-(4-fluorobenzyl)-2-(3-(trifluoromethyl)-4,5,6,7-tetrahydro-1H-indazol-1-yl)acetamido)acetamido)-N-(4-methoxyphenyl)-N-methylpropanamide]: the “SI HIV-1” value with HIV-1 came out at 42. Also, the “SI HIV-2” value with HIV-2 is 8.

The values are drawn from PMC9502897, “Design, Synthesis and Structure—Activity Relationships of Phenylalanine-Containing Peptidomimetics as Novel HIV-1 Capsid Binders Based on Ugi Four-Component Reaction” (Molecules, 2022).
